Anti-infective test results gathered from many reports (values: NIAID ChemDB through PubChem).

All rows: growth or infection tests; species: HIV-1; read-out: inhibition

Lines come from different laboratories, so protocols vary. Inhibition is in % at the dose shown (toxicity tests: loss of growth or viability). Blank or dashed fields: not listed here.

smiles	mutations	setting	method	strain	tested at	cells	value
Cc1cn([C@@H]2C[C@H](CO)[C@H]2CO)c(=O)[nH]c1=O	-	-	cytopathic effect / trypan blue	IIIB	500 µM	ATH8	0%
Cc1cn([C@H]2C[C@H](N=[N+]=[N-])[C@@H](CCP(O[Si](C)(C)C)O[Si](C)(C)C)O2)c(=O)[nH]c1=O	-	-	syncytia	IIIB	400 µM	CEM	0%
Cc1cn([C@H]2C[C@H](N=[N+]=[N-])[C@@H](CO)O2)c(=O)[nH]c1=O	-	7 d	RT activity	LAV-Bru	25 µM	CEM	97%
Cc1cn([C@H]2C[C@H](N=[N+]=[N-])[C@@H](CO)O2)c(=O)[nH]c1=O	-	-	virus yield	LAV-1	10 µM	U-937	>100%
CC(C)=CCOc1cc(NC(=S)c2ccoc2C)ccc1Cl	-	-	p24	92US657 Clinical isolate	0.00921 µg/mL	PBMC	70%
C=C(C)[C@]12C[C@@H](COC(=O)c3ccccc3)[C@@]34O[C@]5(O[C@@H]1[C@@H]3[C@@H]1O[C@]1(CO)[C@@H](O)[C@@]1(O)[C@H]4[C@H]([C@H](C)[C@@H]1OC(=O)c1ccccc1)[C@H](C)CCCCCC[C@H]5O)O2	-	-	-	-	0.005 µM	MT-4	80%
Nc1ncnc2c1ncn2[C@H]1CC[C@@H](CO)O1	-	-	cytopathic effect / trypan blue	IIIB	10 µM	ATH8	99%
Cc1ccnc2c1NC(=O)c1cccnc1N2C1CC1	-	-	p24	BRU	0.1 µM	CEM	85%
COC(=O)[C@@H]1C2CCC(C[C@@H]1OC(=O)c1ccccc1)N2C	-	-	p24	IIIB	50 µg/mL	U-937	<0%
CCC(C)[C@H](NC(=O)[C@H](C(C)C)[C@@H](O)[C@H](O)[C@H](CC1CCCCC1)NC(=O)[C@@H](NC(=O)CCCCC1SC[C@@H]2NC(=O)NC12)C(C)C)C(=O)NCc1ccccn1	-	-	-	D34	0.1 µM	PBMC	69%
C/C=C(\C)C(=O)O[C@H]1[C@H]2[C@@H](CC[C@H]3C[C@@H](O[C@H]4C[C@@H](OC)[C@H](O[C@@H]5OC(C)[C@@H](O[C@@H]6OC(CO)[C@@H](O[C@@H]7OC(CO)[C@@H](O)[C@H](O)C7O)[C@H](O)C6O)[C@H](OC)C5O)C(C)O4)CC[C@@]32C)[C@@]2(O)CC[C@H](C(C)=O)[C@@]2(C)[C@@H]1OC(=O)/C(C)=C/C	-	pseudotyped	luciferase	-	30 µM	SupT1	33.81%
Cc1cn([C@H]2C[C@H](N=[N+]=[N-])[C@@H](CO)O2)c(=O)[nH]c1=O	-	-	RT activity	IIIB	0.0625 µM	MT-4	98.62%
Cc1c(CBr)n2c(C[N+](C)(C)C)c(C)c(=O)n2c1=O.[Br-]	-	-	p24	IIIB	1000 µM	H9	88%
Cc1c(Cc2c(F)cccc2F)nc(SC(C)C)[nH]c1=O	-	-	p24	IIIB	0.15 µM	MT-4	99.9%
Nc1c(S(=O)(=O)O)cc2c3c(cc(S(=O)(=O)O)cc13)C(=O)N(NC(=O)N/N=C/c1cccc(C=O)c1)C2=O	-	-	syncytia	-	400 µM	MT-2	100%
CCC[C@@]1(CCc2ccccc2)CC(O)=C([C@H](CC)c2cccc(NS(=O)(=O)c3ccc(C(F)(F)F)cn3)c2)C(=O)O1	-	-	p24	Isolate UJ00007	0.15 µM	PBMC	90%
Nc1nc(=O)n([C@H]2C[C@H](O)[C@@H](CO)O2)cc1-c1ccsc1	-	-	RT activity	IIIB	10 µg/mL	H9	<1%
Nc1nc2c(ncn2[C@H]2CC[C@@H](CO)O2)c(=O)[nH]1	-	-	cytopathic effect / trypan blue	IIIB	10 µM	ATH8	100%
Cc1ccc(C(=O)O[C@H]2C[C@H](n3cc(-c4cccs4)c(N)nc3=O)O[C@@H]2CO)cc1	-	-	RT activity	IIIB	10 µg/mL	H9	10%
CC(C)(C)NC(=O)[C@@H]1CCCN1C(=O)[C@@H](O)[C@H](Cc1ccccc1)NC(=O)[C@H](CC(N)=O)NC(=O)c1cnc2ccccc2n1	-	-	p24	IIIB	0.5 µM	CEM	61%
Nc1ncnc2c1ncn2CCOCP(=O)(O)O	-	-	p24	BaL	0.5 µM	Macrophage + Monocytes/macrophages	99%
CCc1cc(NCc2nc3c(Cl)ccc(Cl)c3o2)c(=O)[nH]c1C	RT-M41L D67N T215Y	-	p24	Clinical isolate (RT M41L D67N T215Y)	0.8 µM	PBMC	90%
Cc1cn([C@H]2C=C[C@@H](CO)O2)c(=O)[nH]c1=O	-	-	RT activity	SF162 R5	4 µM	PBL (activated) + PBL	99%
Nc1nc(=O)n([C@H]2C[C@H](O)[C@@H](CO)O2)cc1-c1cccnc1	-	-	RT activity	IIIB	10 µg/mL	H9	17.5%
C/C=C(\C)C(=O)O[C@@H]1[C@@H](OC(=O)c2ccccc2)[C@]2(C)[C@@H](C(C)=O)CC[C@@]23O[C@]32CC=C3C[C@@H](O[C@H]4C[C@@H](OC)C(O[C@@H]5OC(C)C(O[C@@H]6OC(CO)C(O[C@@H]7OC(CO)C(O)[C@H](O)C7O)[C@H](O)C6O)[C@H](OC)C5O)C(C)O4)CC[C@]3(C)[C@@H]12	-	pseudotyped	luciferase	-	30 µM	SupT1	13.7%
CC(=O)N1C(=O)SC[C@H]1C(=O)O	-	-	RT activity	BaL	2000 µM	Macrophage + Monocytes/macrophages	66%
CCCCCCCCCCCCCCCCOP(=O)(OC[C@H]1OC(O)[C@H](O)[C@@H](O)[C@@H]1O)OC[C@H]1O[C@@H](n2cc(C)c(=O)[nH]c2=O)C[C@@H]1N=[N+]=[N-]	-	26 d	RT activity	LAV-Bru	1 µM	CEM	0%
CCCCCCc1ccsc1-c1cn([C@@H]2C[C@H](OC(=O)c3ccc(C)cc3)[C@@H](COC(=O)c3ccc(C)cc3)O2)c(=O)[nH]c1=O	-	-	RT activity	IIIB	1 µg/mL	H9	65%
Cc1cn([C@H]2C[C@H](N=[N+]=[N-])[C@@H](CO)O2)c(=O)[nH]c1=O	-	-	p24	Primary clinical isolate Rome	3.7 µM	Macrophage + Monocytes/macrophages	62%
CC[C@@]1(O)C(=O)OCc2c1cc1n(c2=O)Cc2cc3ccccc3nc2-1	-	-	RT activity	IIIB	0.1 µM	H9	98%
CSC[C@H](NC(=O)COc1cccc2cnccc12)C(=O)N[C@@H](Cc1ccccc1)[C@H](O)C(=O)N1CSC(C)(C)[C@H]1C(=O)NC(C)(C)C	-	-	trypan blue	RF	0.3 µM	ATH8	90%
CCC(c1cc(=O)[nH]c(SC2CCCC2)n1)c1c(F)cccc1F	-	-	p24	IIIB	0.083 µM	MT-4	99%
O=C1OC(C2OC(=O)c3cc(O)c(O)c(O)c3-c3c(O)c(O)c4oc(=O)c5c(c(O)c(O)c6oc(=O)c3c4c65)-c3c(cc(O)c(O)c3O)C(=O)OCC2O)C2OC(=O)c3c(c(O)c(O)c(O)c3C2O)-c2c1cc(O)c(O)c2O	-	-	p24	IIIB	1 µg/mL	H9	50%
O=c1[nH]cnc2c1ncn2[C@H]1CC[C@@H](CO)O1	-	-	p24	IIIB	7.5 µM	PBMC	88%
Cc1cn([C@H]2C[C@H](N=[N+]=[N-])[C@@H](CO)O2)c(=O)[nH]c1=O	-	-	p24 / ELISA	IIIB	0.036 µg/mL	U-937	90%
O=c1[nH]cnc2c1ncn2[C@H]1CC[C@@H](CO)O1	-	-	RT activity	SF162 R5	9 µM	PBL (activated) + PBL	49%
Cn1cnc2c(NCc3ccccc3)nc(NCCO)nc21	-	-	p24	UG/92/029 SI CLADE A	10 µM	PBMC	20%
Nc1ccn([C@@H]2C[C@H](CO)[C@H]2CO)c(=O)n1	-	-	cytopathic effect / trypan blue	IIIB	100 µM	ATH8	10%
CC(=O)N[C@@H](CS)C(=O)O	-	-	RT activity	BaL	2000 µM	Macrophage + Monocytes/macrophages	12%
CC(=O)N[C@@H](CS)C(=O)O	-	-	RT activity	LAV	1000 µM	U1 (HIV-1 LAV PMA stimulated) + U1	25%
COc1cc(O)c2c(=O)oc3cc(O)cc(C)c3c2c1	-	pseudotyped	luciferase	ZM247Fv1	35 µM	SupT1	52%
CCC(C)[C@H](NC(=O)[C@H](C(C)C)[C@@H](O)[C@H](O)[C@H](CC1CCCCC1)NC(=O)c1ccccc1SCCCCC[C@@H]1SC[C@@H]2NC(=O)NC21)C(=O)NCc1ccccn1	-	-	p24	D34	0.1 µM	PBMC	83%
O=C1N[C@H](C(=O)O)CS1	-	-	RT activity	BaL	500 µM	Macrophage + Monocytes/macrophages	19%
COc1ccc(CN[C@@H](C(=O)N[C@H]2c3ccccc3C[C@H]2O)[C@H](O)[C@H](Cc2ccccc2)NC(=O)[C@@H](NC(=O)OCc2ccccc2)C(C)(C)C)cc1	-	-	p24	IIIB	0.13 µM	MOLT4 + MOLT-4	90%
CC(C)(C)OC(=O)N[C@@H](CCC(=O)N1C(=O)SC[C@H]1C(=O)O)C(=O)OC(C)(C)C	-	-	RT activity	BaL	2000 µM	Macrophage + Monocytes/macrophages	0%
Nc1nc(=O)n([C@@H]2C[C@H](O)[C@@H](CO)O2)cc1C1CC1	-	-	RT activity	IIIB	10 µg/mL	H9	36%
Cc1c(C(C)c2c(F)cccc2F)nc(SC2CCCC2)[nH]c1=O	-	-	p24	IIIB	0.033 µM	MT-4	99.9%
CC(C)=CCOc1c2occc2cc2ccc(=O)oc12	-	-	luciferase	NL4-3 Recombinant VSV-pseudotyped	25 µM	PBMC	57%
C/C=C(\C)C(=O)O[C@@H]1[C@@H](OC(C)=O)[C@H]2[C@@H](CC=C3C[C@@H](O[C@H]4C[C@@H](OC)[C@H](O[C@@H]5OC(C)[C@@H](O[C@@H]6OC(CO)[C@@H](O[C@@H]7OC(CO)[C@@H](O)[C@H](O)C7O)[C@H](O)C6O)[C@H](OC)C5O)C(C)O4)CC[C@@]32C)[C@@]2(O)CC[C@H](C(C)=O)[C@@]12C	-	pseudotyped	luciferase	-	30 µM	SupT1	48.83%
Nc1nc(=O)n([C@H]2C[C@H](O)[C@@H](CO)O2)cc1-c1ccncc1	-	-	RT activity	IIIB	10 µg/mL	H9	20%
C[C@@H](Cn1cnc2c(N)ncnc21)OCP(=O)(O)O	-	-	p24 / syncytia	BaL	5 µM	Macrophage + Monocytes/macrophages	89%
O=Nc1c(-c2c(O)[nH]c3ccccc23)[nH]c2ccccc12	-	-	p24	RT-M41L L74V V106A T215Y RTMDR	1 µM	PBMC	55.5%
Cc1cn([C@H]2C[C@H](N=[N+]=[N-])[C@@H](CO)O2)c(=O)[nH]c1=O	-	-	RT activity	BZ X4	4 µM	PBL (resting) + PBL	47%
CC(C)[C@H](NC(=O)c1ccc2ccccc2n1)C(=O)N[C@@H](Cc1ccccc1)[C@H](O)CN1CC[C@@H](OCc2ccncc2)C[C@H]1C(=O)NC(C)(C)C	-	-	p24	Nevirapine-resistant	0.029 µM	C8166	90%
C/C=C(\C)C(=O)O[C@@H]1[C@@H](OC(=O)c2ccccc2)[C@]2(C)[C@@H](C(C)=O)CC[C@]2(O)[C@]2(O)CC[C@H]3C[C@@H](O[C@H]4C[C@@H](OC)C(O[C@@H]5OC(C)C(O[C@@H]6OC(CO)C(O[C@@H]7OC(CO)C(O)[C@H](O)C7O)[C@H](O)C6O)[C@H](OC)C5O)C(C)O4)CC[C@]3(C)[C@@H]12	-	pseudotyped	luciferase	-	30 µM	SupT1	29.09%
O=C1N(Cc2ccc(CO)cc2)[C@H](Cc2ccccc2)[C@H](O)[C@@H](O)[C@@H](Cc2ccccc2)N1Cc1ccc(CO)cc1	-	-	p24	Clinical isolate W	0.11 µM	PBMC	90%
Nc1nc(=O)n([C@H]2C[C@H](O)[C@@H](CO)O2)cc1-c1ccc[se]1	-	-	RT activity	IIIB	10 µg/mL	H9	3%

Again, the opening 5 rows:

smiles	mutations	setting	method	strain	tested at	cells	value
Cc1cn([C@@H]2C[C@H](CO)[C@H]2CO)c(=O)[nH]c1=O	-	-	cytopathic effect / trypan blue	IIIB	500 µM	ATH8	0%
Cc1cn([C@H]2C[C@H](N=[N+]=[N-])[C@@H](CCP(O[Si](C)(C)C)O[Si](C)(C)C)O2)c(=O)[nH]c1=O	-	-	syncytia	IIIB	400 µM	CEM	0%
Cc1cn([C@H]2C[C@H](N=[N+]=[N-])[C@@H](CO)O2)c(=O)[nH]c1=O	-	7 d	RT activity	LAV-Bru	25 µM	CEM	97%
Cc1cn([C@H]2C[C@H](N=[N+]=[N-])[C@@H](CO)O2)c(=O)[nH]c1=O	-	-	virus yield	LAV-1	10 µM	U-937	>100%
CC(C)=CCOc1cc(NC(=S)c2ccoc2C)ccc1Cl	-	-	p24	92US657 Clinical isolate	0.00921 µg/mL	PBMC	70%